# According to patent US7626005B2, “Inhibitors of aminoglycoside 6′-N-acetyltransferases, compositions and uses thereof” (priority 2005, dated 2009):
# Chains of the proteins cited; added tags and fusions are not shown. Residues count along the entry.
# UniProt Q9R381, whole entry: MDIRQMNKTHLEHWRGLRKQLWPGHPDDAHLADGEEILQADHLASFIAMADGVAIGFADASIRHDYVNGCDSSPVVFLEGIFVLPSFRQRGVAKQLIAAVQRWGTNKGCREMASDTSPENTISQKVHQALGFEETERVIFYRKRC
# UniProt Q47764, 1-182: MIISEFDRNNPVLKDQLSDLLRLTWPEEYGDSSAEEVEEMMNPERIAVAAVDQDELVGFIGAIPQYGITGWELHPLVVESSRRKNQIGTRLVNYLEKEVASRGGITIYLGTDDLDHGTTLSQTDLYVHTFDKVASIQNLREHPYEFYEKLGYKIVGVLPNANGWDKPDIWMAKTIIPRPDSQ
# Legend:
# AAC(6′)-Iy = AAC(6′)-Iy (Salmonella enteritidis, UniProt Q9R381); assay: Inhibition assay of AAC(6′)-Iy; assay type: biochemical, Salmonella enterica; settings: read-out: AAC(6′)-Iy [Ki; (μM)]; Table 2
# AAC(6′)-Ii = AAC(6′)-Ii (Enterococcus faecium, UniProt Q47764); assay: AAC6′-Ii inhibition assay (DTDP-coupled, varying AcCoA); assay type: biochemical
smiles,measurement,setting,value
CC(C)(COP(=O)(O)OP(=O)(O)OC[C@H]1O[C@@H](n2cnc3c(N)ncnc32)[C@H](O)[C@@H]1OP(=O)(O)O)[C@@H](O)C(=O)NCCC(=O)NCCSCC(=O)NC[C@H]1O[C@H](O[C@@H]2[C@@H](O)[C@H](O[C@H]3O[C@H](CO)[C@@H](O)[C@H](N)[C@H]3O)[C@@H](N)C[C@H]2N)[C@H](O)[C@@H](O)[C@@H]1O,Ki,AAC(6′)-Iy,2.3 µM
same,Ki,"AAC(6′)-Ii; Table 1, inhibition of AAC(6′)-Ii, varying AcCoA",0.111 µM
same,Vm,"AAC(6′)-Ii; Table 1, maximal velocity from the fit of the inhibition assay",0.17 ± 0.04 µM/s
same,Ki,"AAC(6′)-Ii; read-out: AAC(6′)-Ii [Ki, (μM)], Table 2",0.111 µM
same,enhanced inhibition of AAC(6′)-Ii as compared to lysine-CoA conjugates (3a and 3b),AAC(6′)-Ii; relative to 3a and 3b,500 fold
same,type of inhibition (in words),AAC(6′)-Ii; versus acetylCoA,competitive inhibition versus acetylCoA

# Read-outs that look alike come from different tables or passages of the source.
